A mixed list of measured activities; the numbers were collected in NIAID ChemDB.

Common to all: whole-cell or culture tests; organism: Candida albicans

Blank or dashed fields: not listed here. a–b is a range or a potency band. MIC50, MIC90 and the like: level of inhibition, or share of isolates inhibited. Conditions beyond the fields shown may differ between rows. ECn is the concentration giving n% inhibition of infection, replication or growth.

structure | strain | endpoint | read by | value
CN[C@@H]1[C@H](O[C@@H]2OC[C@@H](O)[C@H](O)[C@H]2O)[C@@H](O)[C@H](O[C@H]2c3cc(C)c(C(=O)OCC(=O)O)c(O)c3-c3c(cc4c(c3O)C(=O)c3cc(OC)cc(O)c3C4=O)[C@@H]2O)O[C@@H]1C | A9540 | MIC |  | >100 µg/mL
C1CCC(C[C@@H]2CN3C(=NC[C@@H]3C3CCCCC3)N2CCC23CC4CC(CC(C4)C2)C3)CC1 | ATCC 10231 | EC50 |  | 2.5 µg/mL
CN[C@@H]1[C@H](O[C@@H]2OC[C@@H](O)[C@H](O)[C@H]2O)[C@@H](O)[C@H](O[C@H]2c3cc(C)c(C(=O)O)c(O)c3-c3c(cc4c(c3O)C(=O)c3cc(OC)cc(O)c3C4=O)[C@@H]2O)O[C@@H]1C | A9540 | MIC |  | >100 µg/mL
C1CCC(C[C@@H]2CN3C(=NC[C@H]3C3CCCCC3)N2CCC23CC4CC(CC(C4)C2)C3)CC1 | ATCC 10231 | EC50 |  | 23.8 µg/mL
COc1ccnc(C(=O)N[C@H]2COC(=O)[C@H](Cc3ccccc3)[C@@H](OC(=O)C(C)C)[C@H](C)OC2=O)c1O | IFO1061 | MIC |  | 0.2 µg/mL
CCN1C2=NCC(C)(C)N2C[C@@H]1Cc1ccccc1 | ATCC 10231 | EC50 |  | >250 µg/mL
CCCCC(NC(=O)C(N)CC(C)C)C(=O)NC(C(=O)O)[C@H]1O[C@@H](n2ccc(=O)[nH]c2=O)[C@H](O)[C@@H]1O | H317 | EC50 |  | 500 µM
COc1ccnc(C(=O)NC/C=C(\C)C2COC(=O)C(Cc3ccccc3)C(OC(=O)C(C)C)C(C)OC2=O)c1O | IFO1061 | MIC |  | >100 µg/mL
C[C@H]1[C@H](O)[C@@H](C)/C=C/C=C/C=C/C=C/C=C/C=C/C=C/[C@H](O[C@@H]2O[C@H](C)[C@@H](O)[C@H](N)[C@@H]2O)C[C@@H]2O[C@](O)(C[C@@H](O)C[C@@H](O)CC[C@H](O)[C@@H](O)C[C@@H](O)CC(=O)O[C@H]1C)C[C@H](O)[C@H]2C(=O)O | ATCC 10231 | MIC100 | broth dilution | 0.78 µg/mL
CN[C@@H]1[C@H](O[C@@H]2OC[C@@H](O)[C@H](O)[C@H]2O)[C@@H](O)[C@H](O[C@H]2c3cc(C)c(C(=O)N[C@@H](CO)C(=O)O)c(O)c3-c3c(cc4c(c3O)C(=O)c3cc(OC)cc(O)c3C4=O)[C@@H]2O)O[C@@H]1C | A9540 | MIC |  | 25 µg/mL
CC(=O)N1CCN(c2ccc(OC[C@H]3CO[C@](Cn4ccnc4)(c4ccc(Cl)cc4Cl)O3)cc2)CC1 | Isogenic isolate 5 MDR1 (25X) | MIC |  | ≤0.008 µg/mL
CN[C@@H]1[C@H](O[C@@H]2OC[C@@H](O)[C@H](O)[C@H]2O)[C@@H](O)[C@H](O[C@H]2c3cc(C)c(C(=O)N4CCC[C@@H]4C(=O)O)c(O)c3-c3c(cc4c(c3O)C(=O)c3cc(OC)cc(O)c3C4=O)[C@@H]2O)O[C@@H]1C | A9540 | MIC |  | >100 µg/mL
O=c1ccc2cc(I)ccc2o1 | ATCC 14053 | MIC |  | 500 µg/mL
C1CCC([C@H]2CN3C(=NC[C@@H]3C3CCCCC3)N2CCC23CC4CC(CC(C4)C2)C3)CC1 | ATCC 10231 | EC50 |  | 18.6 µg/mL
Cc1ccc2occ(C(c3c(O)c4ccccc4oc3=O)c3c(O)c4ccccc4oc3=O)c(=O)c2c1 |  | MIC | agar diffusion / agar | 25 µg/mL
CC(C)(C)C1CCC(CN2C3=NC[C@H](Cc4ccccc4)N3C[C@@H]2Cc2ccccc2)CC1 | ATCC 10231 | EC50 |  | 50.6 µg/mL
C=C1/C=C(\C)[C@H](CC)OC(=O)[C@H](C)C(=O)C(O)(CO)C/C(OC)=C/[C@@H](C)C1 | ATCC 90028 | MIC |  | 2.5 µg/mL
O=c1oc2ccccc2c(O)c1C(c1c(O)c2ccccc2oc1=O)c1coc2ccccc2c1=O |  | MIC | agar diffusion / agar | 25 µg/mL
CCN1C2=NC[C@H](Cc3ccccc3)N2C[C@H]1CC1CCCCC1 | ATCC 10231 | MIC |  | >64 µg/mL
C/C=C/c1ccc2oc(-c3ccc(O)cc3)c(C)c2c1 |  | MIC |  | <256 µg/mL
COc1ccnc(C(=O)NCCCCCCCC2COC(=O)C(Cc3ccccc3)C(OC(=O)C(C)C)C(C)OC2=O)c1O | IFO1061 | MIC |  | 25 µg/mL
CC(=O)N1CCN(c2ccc(OC[C@H]3CO[C@](Cn4ccnc4)(c4ccc(Cl)cc4Cl)O3)cc2)CC1 | Clinical isolates | MIC |  | 32 µg/mL
CN(C)C1=NC(=O)/C(=C/c2ccc(F)cc2)S1 | ATCC 10231 | MIC100 | broth dilution | >250 µg/mL
CCN1C[C@]2(COC)CC[C@H](OC)[C@]34C1[C@@](O)([C@@H](OC)[C@H]23)[C@@]1(O)C[C@H](OC)C2C[C@@H]4[C@@H]1[C@H]2OC(C)=O |  | MIC |  | 0.25 µg/mL
Nc1ccc2oc(=O)ccc2c1 | ATCC 14053 | MIC |  | 500 µg/mL
CCN1C2=NC[C@H](Cc3ccccc3)N2C[C@H]1CCCN=C(N)N | ATCC 10231 | EC50 |  | >250 µg/mL
CCOC(=O)CC#N |  | MIC | broth dilution | 14000 µM
Cc1c(N)nc([C@H](CC(N)=O)NC[C@H](N)C(N)=O)nc1C(=O)N[C@H](C(=O)N[C@H](C)[C@@H](O)[C@H](C)C(=O)N[C@H](C(=O)NCCc1nc(-c2nc(C(=O)NCCC[S+](C)C)cs2)cs1)[C@@H](C)O)C(O[C@@H]1O[C@@H](CO)[C@@H](O)[C@H](O)[C@@H]1O[C@H]1O[C@H](CO)[C@@H](O)[C@H](OC(N)=O)[C@@H]1O)c1cnc[nH]1 | Isolate 94-75 | MLC |  | 50 µg/mL
C=C(C)C1Cc2cc3ccc(=O)oc3cc2O1 | ATCC 14053 | MIC |  | 500 µg/mL
COc1cccc(C(=O)NCCCCCCCC2COC(=O)C(Cc3ccccc3)C(OC(=O)C(C)C)C(C)OC2=O)c1O | IFO1061 | MIC |  | 25 µg/mL
COc1cc2ccc(=O)oc2cc1OC/C=C(\C)CCC=C(C)C | ATCC 14053 | MIC |  | 500 µg/mL
CC(C)(C)C1CCC(CN2C3=NC[C@H](C4CCCCC4)N3C[C@H]2CC2CCCCC2)CC1 | ATCC 10231 | MIC |  | 5–8 µg/mL
CC(=O)N1CCN(c2ccc(OC[C@H]3CO[C@](Cn4ccnc4)(c4ccc(Cl)cc4Cl)O3)cc2)CC1 | ATCC 10231 | MIC100 | broth dilution | 0.5 µg/mL

The first 3 rows once more:

CN[C@@H]1[C@H](O[C@@H]2OC[C@@H](O)[C@H](O)[C@H]2O)[C@@H](O)[C@H](O[C@H]2c3cc(C)c(C(=O)OCC(=O)O)c(O)c3-c3c(cc4c(c3O)C(=O)c3cc(OC)cc(O)c3C4=O)[C@@H]2O)O[C@@H]1C ; strain: A9540 ; endpoint: MIC ; value: >100 µg/mL
C1CCC(C[C@@H]2CN3C(=NC[C@@H]3C3CCCCC3)N2CCC23CC4CC(CC(C4)C2)C3)CC1 ; strain: ATCC 10231 ; endpoint: EC50 ; value: 2.5 µg/mL
CN[C@@H]1[C@H](O[C@@H]2OC[C@@H](O)[C@H](O)[C@H]2O)[C@@H](O)[C@H](O[C@H]2c3cc(C)c(C(=O)O)c(O)c3-c3c(cc4c(c3O)C(=O)c3cc(OC)cc(O)c3C4=O)[C@@H]2O)O[C@@H]1C ; strain: A9540 ; endpoint: MIC ; value: >100 µg/mL